{
  "source": "paper PMC5431807",
  "about": "“Structural Basis for Importin-α Binding of the Human Immunodeficiency Virus Tat” (Scientific Reports, 2017)",
  "system": "importin-β",
  "assay": "Binding of importin-β to immobilised GST-Tat:NLS/CPP on glutathione column, SDS-PAGE",
  "parameters": "species or system mouse",
  "conditions": "GST-Tat:NLS/CPP fusion immobilised on glutathione column, importin-β passed over",
  "note": "Entries after “also recorded” stand apart in the source; their conditions may differ.",
  "data": [
    {"sequence": "GRKKRRQRRRAPQN [Tat:NLS/CPP, entire cell penetrating region of HIV-1 Tat, residues 48–61, recombinantly expressed as a GST-fusion, tag cleaved by TEV for crystallisation]", "values": [
      {"measurement": "binding to importin-β (column retention / complex formation)", "result": "lack of complex formation; also recorded: no direct interaction"}
    ]}
  ]
}
